Measured values: article PMC6572805

Tested on: CC(=O)N[C@H]1[C@H](Oc2ccc3c(C)cc(=O)oc3c2)O[C@H](CO)[C@@H](O)[C@@H]1O
Assay: purified protein
Conditions: pH 7.5; 37.0 °C

“LpqI (LpqITB) (Mycobacterium tuberculosis H37Rv)” was tested, and the Km was 72 ± 5 µM.
